Anti-infective test results gathered from many reports (values: NIAID ChemDB through PubChem).

Common to all: tests in culture; agent: Tacaribe virus

Neighbouring rows are from separate reports.

compound	method	cell line	endpoint	strain or isolate	result
Nc1ccn([C@@H]2C=C(CO)[C@@H](O)[C@H]2O)c(=O)n1	cytopathic effect	VERO	EC50		0.03 µg/mL
Nc1ncnc2c1ncn2[C@@H]1C=C[C@@H](O)[C@H]1O			MIC		2 µg/mL
C=C[C@@H](O)C1=C[C@@H](n2cnc3c(N)ncnc32)[C@H](O)[C@@H]1O	cytopathic effect	VERO	EC50		>50 µg/mL
Nc1ncnc2c1ccn2[C@@H]1C[C@H](O)[C@@H](O)[C@H]1O		VERO	EC50		8 µg/mL
Nc1ncnc2c1ncn2CCCC(O)CF	cytopathic effect	VERO	EC50		>50 µg/mL
Nc1ncnc2c1ncn2[C@@H]1CC[C@@H](O)[C@H]1O			MIC		0.01 µg/mL
O=S1(=O)C[C@H](O)[C@H](O)CS1	virus yield	VERO	EC50	11573	42.6 µM
Nc1ncnc2c1ncn2[C@@H]1O[C@H](CO)[C@](O)(C(F)(F)F)[C@H]1O	cytopathic effect	VERO	EC50		14 µg/mL
Nc1nccc2c1ncn2[C@@H]1C[C@H](CO)[C@@H](O)[C@H]1O			MIC		2 µg/mL
Nc1ncnc2c1ncn2C(CF)CCCO	cytopathic effect	VERO	EC50		>50 µg/mL
O=S1(=O)C[C@H](O)[C@@H](O)CS1	virus yield	VERO	EC50	11573	11.4 µM
C=C[C@H](O)C1=C[C@@H](n2cnc3c(N)ncnc32)[C@H](O)[C@@H]1O	cytopathic effect	VERO	EC50		>50 µg/mL
O=C(N/N=C/c1ccc(Cl)cc1Cl)c1ccccc1SSc1ccccc1C(=O)N/N=C/c1ccc(Cl)cc1Cl	virus yield	VERO	EC50	11573	20.6 µM
C[C@@]1(O)[C@@H](CO)O[C@@H](n2cnc3c(N)ncnc32)[C@@H]1O	cytopathic effect	VERO	EC50		10 µg/mL
Nc1nc(F)nc2c1ncn2[C@@H]1C=C(CO)[C@@H](O)[C@H]1O	cytopathic effect	VERO	EC50		0.7 µg/mL

An empty or dashed field is not shown. ECn is the concentration giving n% inhibition of infection, replication or growth.